Laboratory results taken from patent US11624022B2, “Preparation method for the plant-based nano corrosion inhibition bactericide for oilfield and application thereof” (Southwest Petroleum University, priority 2021, dated 2023).

assay: Corrosion inhibition performance test (static uniform corrosion, SY/T 5273-2014); settings: 60 mg/L; N80 steel, corrosive solution pH 6.5, 37° C., 14 days; blank 0.3254
Description: The corrosive solution of 1 L was prepared, the pH was adjusted to 6.5, and the temperature was 37° C. at a normal pressure. The N80 steel specimens were processed with specifications of 30*15*3 and placed in corrosive solution. Three specimens were placed in each vial and different corrosion inhibitors were added respectively. The experiment lasted for 14 days.
After the test, the specimens were cleaned with stripping solution (100 ml hydrochloric acid+10 g hexamethylenetetramine+900 mL deionized water), then dehydrated by ethanol and blow-dried with N2. The determination method for static uniform corrosion inhibition rate was evaluated with referring to the Performance Index and Evaluation Method of Corrosion Inhibitor for Oilfield Produced Water Treatment (SY/T 5273-2014), the oil and gas industry standard of the People's Republic of China. The formulas of uniform corrosion rate and corrosion inhibition efficiency are as follows:
The corrosion inhibition test results are shown in Table 3, in which the corrosion inhibitors 1, 2 and 3 commonly used in oilfields are respectively the lauric acid imidazoline, abietic acid imidazoline and tetradecyl trimethyl ammonium bromide.

| Molecule | Corrosion rate [mm/a] |
| --- | --- |
| CCCCCCCCCCCCCC[N+](C)(C)C.[Br-] [Tetradecyl trimethyl ammonium bromide, tetradecyl trimethyl ammonium bromide] | 0.0295 |
| abietic acid imidazoline | 0.0198 |
| lauric acid imidazoline | 0.0218 |
